In patent US20050170334A1:

Columns and labels:
Assay in all cases: ELISA, peptide coated, antibody 10 µg/ml
M16 (influenza A virus) = target: M16 (influenza A virus)
NM16 (influenza A virus) = target: NM16 (influenza A virus)
NM15 (influenza A virus) = target: NM15 (influenza A virus)
NM17 (influenza A virus) = target: NM17 (influenza A virus)
M15 (influenza A virus) = target: M15 (influenza A virus)

B1: N547 (antibody, V domains shown)
VH: EVQLVESGGGLVKPGGSLRLSCAASGFTFSNALMSWVRQAPGKGLEWVGRIKSKTNGGTTDYAAPVKGRFTISRDDSKNTLYLQMNSLKTEDTAVYYCTTHLRYFDWLSDYWGQGTLVTVSS
VL: QSVLTQPPSMSAAPGQKVTISCSGSSSNIGNNYISWYQQLPGTAPKVLIYDNNKRPSGIPDRFSGSKSGTSATLGITGLQTGDEADYYCGSWDSSLSAGVFGTGTKVTVLG
**Q.** How did the ELISA (OD450) (M16 (influenza A virus)) turn out when B1 was run?
**A.** 0.68 OD450

**Q.** What about the ELISA (OD450) (NM16 (influenza A virus)) of the same binder?
**A.** 1.13 OD450

**Q.** What about the ELISA (OD450) (NM15 (influenza A virus)) of the same binder?
**A.** 0.09 OD450

**Q.** And the ELISA (OD450) (NM17 (influenza A virus))?
**A.** 1.04 OD450

**Q.** What about the ELISA (OD450) (M15 (influenza A virus)) of the same binder?
**A.** 0.07 OD450
